For at least one entry, the source does not settle the construct or the ends of the probe. Where cells or extracts were used, other partners may take part. Protein sequences can lack the tags named with them.

The data set concerns the target T1, AGO1 (Arabidopsis thaliana) (UniProt O04379).
T1 sequence (looked up, limits assumed): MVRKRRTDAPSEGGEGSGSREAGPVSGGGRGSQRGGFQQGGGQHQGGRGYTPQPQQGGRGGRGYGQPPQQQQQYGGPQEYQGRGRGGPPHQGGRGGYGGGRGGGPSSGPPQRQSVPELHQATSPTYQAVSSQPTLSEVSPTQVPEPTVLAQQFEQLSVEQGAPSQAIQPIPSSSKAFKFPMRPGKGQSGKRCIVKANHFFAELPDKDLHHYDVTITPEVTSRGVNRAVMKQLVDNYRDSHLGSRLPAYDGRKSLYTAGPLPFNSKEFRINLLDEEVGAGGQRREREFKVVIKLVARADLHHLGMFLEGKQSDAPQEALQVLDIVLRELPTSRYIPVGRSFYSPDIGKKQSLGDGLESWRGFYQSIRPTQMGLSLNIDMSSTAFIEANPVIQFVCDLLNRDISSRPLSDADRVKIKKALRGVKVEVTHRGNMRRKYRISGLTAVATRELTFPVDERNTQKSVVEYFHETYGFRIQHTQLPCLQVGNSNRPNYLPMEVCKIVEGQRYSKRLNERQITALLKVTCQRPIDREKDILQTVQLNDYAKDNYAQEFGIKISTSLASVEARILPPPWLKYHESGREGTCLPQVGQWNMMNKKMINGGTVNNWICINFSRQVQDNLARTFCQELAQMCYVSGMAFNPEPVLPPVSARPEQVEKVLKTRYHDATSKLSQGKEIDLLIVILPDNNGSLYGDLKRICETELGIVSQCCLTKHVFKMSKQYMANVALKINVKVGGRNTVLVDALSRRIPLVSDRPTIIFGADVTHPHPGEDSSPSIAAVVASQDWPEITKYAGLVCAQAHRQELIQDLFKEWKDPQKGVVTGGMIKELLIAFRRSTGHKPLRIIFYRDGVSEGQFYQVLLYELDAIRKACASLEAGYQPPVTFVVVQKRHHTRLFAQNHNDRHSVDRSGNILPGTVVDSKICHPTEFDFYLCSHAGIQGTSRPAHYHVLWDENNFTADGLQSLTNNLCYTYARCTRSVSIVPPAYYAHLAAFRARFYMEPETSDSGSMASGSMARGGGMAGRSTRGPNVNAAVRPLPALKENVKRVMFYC
In words: pull-down. As to conditions: AGO1-IP then RT-PCR; infected leaves 24, 32, 48 hpi; hardly detected in mixed control; protein in an extract.
UUGUGGAUCUUGUAGGUGGGC [Bc-siR3.1]: the binding result was “binds”.

As to UUUGACUCGGAAUGUAUACUU [Bc-siR5], the binding result is listed as “binds”.

UACAUUGUGGAUCUUGUAGGU [Bc-siR3.2]: the binding result is recorded as “binds”.

For the origin of these results see patent US20150203865.
